Reference: PMC5678585, “Screening a protein kinase inhibitor library against Plasmodium falciparum” (Malaria Journal, 2017)

The compounds below were run on Plasmodium falciparum 3D7. Details: ratio of EC50 SYBR Green vs [3H]-hypoxanthine.
Protocol: Growth inhibition was quantified using a fluorescence assay utilizing the binding of SYBR Green I to double stranded DNA, which emits a fluorescent signal at 528 nm after excitation at 485 nm. The SYBR Green assay system was adapted to maximize robustness and to align with available automation systems. The Prestwick Library then used as a pilot screen to validate the performance of the optimized assay. […] Single point screens were carried out, and the potency of compounds of interest was determined in duplicate on two independent occasions. A 96-well [^3H]-Hypoxanthine incorporation assay was also developed as a secondary assay in order to validate key compounds from each hit series in an orthogonal platform.
All data were processed using IDBS ActivityBase. […] The formula used to calculate Z’ is 1-3×(StDev_high+StDev_low)/ABS(Mean_high-Mean_low) .
Two independent assays were run.

Row | SMILES | Ratio fluorescent vs radiometric
1 | O=C(Nc1cccnc1)c1cc(-c2cccnc2)nc2ccc(Br)cc12 [Compound A0004] | 2
2 | Fc1ccc(-c2cc(Nc3ccncc3)nc(-c3ccccc3)n2)cc1 [Compound A0002] | 4
3 | O=C(Nc1cccnc1)c1cn(-c2ccccc2)nc1-c1cccs1 [Compound A0003] | 4
